Results of unrelated studies side by side (data: NIAID ChemDB).

Shared fields: target-level tests

Percent inhibition refers to the dose given; in toxicity tests it is the harm to the cells. Lines come from different laboratories, so protocols vary. An empty or dashed field is not shown. Fold resistance has wild type as its base. Two numbers with a dash give a range or band. ICn: concentration for n% inhibition.

compound | mutations | target | organism | tested at | strain | setting | method | read-out | result
O=C(Nc1ccc2cn[nH]c2c1)c1cc(C2CCNCCN2)c(F)cc1F | - | Nonstructural protein 5B | Hepatitis C virus | 1 µg/mL | - | - | - | inhibition | 29%
O=C(O)[C@H](Cc1ccccc1)N(Cc1cccc(Br)c1)C(=O)c1ccc(Cl)cc1I | - | RNA-dependent RNA polymerase | Hepatitis C virus | - | - | - | - | IC50 | <5 µM
CC(=O)N[C@@H](CC(=O)O)C(=O)N[C@@H](Cc1ccc(O)cc1)C(=O)N[C@@H](CC(C)C)C(=O)N[C@@H](CCC(=O)O)C(=O)N[C@@H](CC1CCCCC1)C(=O)N[C@@H](CS)C(=O)O | - | HCV NS3 protease | Hepatitis C virus | - | - | - | - | IC50 | 0.135 µM
O=C(O)c1nc(-c2cccc(OCc3cccc(Cl)c3)c2)[nH]c(=O)c1O | - | HCV polymerase | Hepatitis C virus | - | - | - | - | IC50 | <100 µM
CC(=O)N[C@@H](CC(=O)O)C(=O)N[C@@H](CCC(=O)O)C(=O)N[C@H](C(=O)N[C@H](C(=O)N[C@@H](CS)C(=O)N[C@@H](CS)C(=O)O)C(C)C)C(C)C | - | HCV NS3 protease | Hepatitis C virus | - | - | - | - | IC50 | 2.1 µM
O=c1c(O)c(-c2ccccc2)oc2cc(O)cc(O)c12 | - | Replicase complex | Hepatitis C virus | 20 µM | J4 | - | SYBR Green | inhibition | 80.8%
COc1ccc(CCNC(=O)c2ccc3c(c2)nc(-c2ccccn2)n3C2CCCCC2)cc1OC | - | NS5B polymerase | Hepatitis C virus | - | - | - | - | IC50 | 12 µM
CC[C@H](C)[C@H](NC(=O)[C@H](CCC(=O)O)NC(=O)[C@H](CC(=O)O)NC(C)=O)C(=O)N[C@@H](CCC(=O)O)C(=O)N[C@@H](CC1CCCCC1)C(=O)N[C@@H](CS)C(=O)O | - | HCV NS3 protease | Hepatitis C virus | - | - | - | - | IC50 | 0.122 µM
O=c1c(O)c(-c2ccc(O)c(O)c2)oc2cc(O)c(O)c(O)c12 | - | Replicase complex | Hepatitis C virus | - | H77 | genotype 1a | SYBR Green | IC50 | 2.8 µM
C=C1CC(NC(=O)[C@@H]2C[C@@H](Oc3cc(-c4ccccc4)nc4cc(OC)ccc34)CN2C(=O)[C@@H](NC(=O)OC(C)(C)C)C(C)(C)C)(C(=O)O)C1 | - | HCV NS3/NS4A protease | Hepatitis C virus | - | - | - | - | IC50 | 0.6 µM
CCN(C(=O)c1ccc(C)cc1)c1cc(-c2ccccc2)sc1C(=O)O | - | NS3 ATPase | Hepatitis C virus | - | - | - | - | IC50 | <5 µM
O=C(Nc1ccc2cn[nH]c2c1)c1cc(N2CCN(CCO)CC2)c(F)cc1F | - | Nonstructural protein 5B | Hepatitis C virus | 0.1 µg/mL | - | - | - | inhibition | 0%
CC(C)C[C@H](NC(=O)[C@@H](CCC(=O)O)NC(=O)[C@@H](N)CC(=O)O)C(=O)N[C@@H](CCC(=O)O)C(=O)N[C@@H](CC1CCCCC1)C(=O)N[C@@H](CS)C(=O)O | - | Full-length NS3 | Hepatitis C virus | - | - | - | - | IC50 | 2.57 µM
C=C[C@@H]1C[C@]1(NC(=O)[C@@H]1C[C@@H](Oc2nccc3ccc(Br)cc23)CN1C(C)=O)C(=O)NS(=O)(=O)C1CC1 | - | Nonstructural protein 3/4A | Hepatitis C virus | - | 1b WT | - | FRET | IC50 | 2.458 µM
C=C[C@H]1CC1(NC(=O)[C@@H]1C[C@@H](Oc2cc(-c3ccccc3)nc3cc(OC)ccc23)CN1C(=O)[C@@H](NC(=O)CC(C)(C)C)C(C)(C)C)C(=O)O | - | HCV NS3/NS4A protease | Hepatitis C virus | - | - | - | - | IC50 | 0.12 µM
Cc1ccccc1S(=O)(=O)Nc1cc(-c2ccc(F)c(Cl)c2)sc1C(=O)O | - | NS3 ATPase | Hepatitis C virus | - | - | - | - | IC50 | 5–20 µM
C=C[C@H]1CC1(NC(=O)[C@@H]1C[C@@H](Oc2cccc3ncccc23)CN1C(=O)[C@@H](NC(=O)OC(C)(C)C)C1CCCCC1)C(=O)O | - | HCV NS3/NS4A protease | Hepatitis C virus | - | - | - | - | IC50 | 8.5 µM
Cc1cccc(Cl)c1CNC(=O)Nc1ccsc1-c1nc(C(=O)O)c(O)c(=O)[nH]1 | - | HCV polymerase | Hepatitis C virus | - | - | - | - | IC50 | <25 µM
O=C(O)c1sc(-c2ccccc2)cc1N(CC1CCN(C(=O)OCc2ccccc2)CC1)C(=O)c1ccc(Cl)cc1Cl | - | NS3 ATPase | Hepatitis C virus | - | - | - | - | IC50 | <5 µM
O=C1/C(=C\c2ccc(Br)c(Br)c2)SC(=S)N1NS(=O)(=O)c1cccc(Cl)c1 | - | NS5B polymerase | Hepatitis C virus | - | - | - | - | IC50 | ≤30 µM
Cc1ccccc1S(=O)(=O)Nc1cc(-c2ccc(OC(F)(F)F)cc2)sc1C(=O)O | - | NS3 ATPase | Hepatitis C virus | - | - | - | - | IC50 | <5 µM
O=C1/C(=C\c2ccc3c(c2)OCO3)SC(=S)N1NS(=O)(=O)c1ccccc1 | - | NS5B polymerase | Hepatitis C virus | - | - | - | - | IC50 | ≤30 µM
Cc1[nH]c2ccccc2c1CC(=O)Nc1ccsc1-c1nc(C(=O)O)c(O)c(=O)[nH]1 | - | HCV polymerase | Hepatitis C virus | - | - | - | - | IC50 | <25 µM
O=C(Nc1ccc2cn[nH]c2c1)c1cc(NCc2ccccn2)c(F)cc1F | - | Nonstructural protein 5B | Hepatitis C virus | 10 µg/mL | - | - | - | inhibition | 77%
O=C(CCCCC(=O)Nc1nccs1)Nc1nccs1 | - | Nonstructural protein 3 NTPase/helicase | Hepatitis C virus | - | - | - | - | IC50 | >25 µg/mL
CC(=O)N[C@@H](CC(=O)O)C(=O)N[C@@H](CC(=O)O)C(=O)N[C@@H](CC(C)C)C(=O)N[C@@H](CCC(=O)O)C(=O)N[C@@H](CC1CCCCC1)C(=O)N[C@@H](CS)C(=O)O | - | HCV NS3 protease | Hepatitis C virus | - | - | - | - | IC50 | 0.29 µM
c1cc(CN2CCC(C3=N[C@@H]4CCCC[C@H]4N3)CC2)ccc1CN1CCC(C2=N[C@H]3CCCC[C@@H]3N2)CC1 | - | Nonstructural protein 3 NTPase/helicase | Hepatitis C virus | - | - | - | - | IC50 | >25 µg/mL
CC(C)N(C(=O)C1CC=CCC1)c1cc(-c2ccccc2)sc1C(=O)O | - | NS3 ATPase | Hepatitis C virus | - | - | - | - | IC50 | 5–20 µM
O=C1/C(=C\c2cc(F)c(F)cc2F)SC(=S)N1NS(=O)(=O)Cc1ccccc1 | - | NS5B polymerase | Hepatitis C virus | - | - | - | - | IC50 | ≤30 µM
CC(C)(C)OC(=O)N[C@H](C(=O)N1C[C@H](Oc2ccnc3cc(Cl)ccc23)C[C@H]1C(=O)NC1(C(=O)O)CCC1)C(C)(C)C | - | HCV NS3/NS4A protease | Hepatitis C virus | - | - | - | - | IC50 | 7.9 µM
CC[C@H](C)[C@H](NC(=O)[C@@H](NC(=O)[C@H](CCC(=O)O)NC(=O)[C@H](CC(=O)O)NC(C)=O)C(c1ccccc1)c1ccccc1)C(=O)N[C@@H](CC1CCCCC1)C(=O)N[C@@H](CS)C(=O)O | - | Full-length NS3 | Hepatitis C virus | - | - | - | - | IC50 | 0.3674 µM
N#Cc1ccc(NC(=O)Nc2cccc(-c3nc(C(=O)O)c(O)c(=O)[nH]3)c2)cc1 | - | HCV polymerase | Hepatitis C virus | - | - | - | - | IC50 | <100 µM
O=C(O)[C@H](Cc1ccccc1)N(Cc1cccc(Br)c1)C(=O)c1ccc(Cl)cc1 | - | RNA-dependent RNA polymerase | Hepatitis C virus | - | - | - | - | IC50 | 5–20 µM
C=C[C@H]1CC1(NC(=O)[C@@H]1C[C@@H](Oc2cc(C(F)(F)F)nc3c(C(F)(F)F)cccc23)CN1C(=O)[C@@H](Nc1ccc(C(=O)OC(C)(C)C)cc1)C(C)(C)C)C(=O)O | - | HCV NS3/NS4A protease | Hepatitis C virus | - | - | - | - | IC50 | 1.95 µM
COc1ccccc1CNC(=O)Nc1cccc(-c2nc(C(=O)O)c(O)c(=O)[nH]2)c1 | - | HCV polymerase | Hepatitis C virus | - | - | - | - | IC50 | <100 µM
O=c1c(O)c(-c2cc(O)c(O)c(O)c2)oc2cc(O)cc(O)c12 | - | Replicase complex | Hepatitis C virus | 20 µM | J4 | - | SYBR Green | inhibition | 79.2%
O=C(Nc1ccc2[nH]ncc2c1)c1cc(N2CCNCC2)c(F)cc1F | - | Reverse transcriptase | Hepatitis B virus | 0.01 µg/mL | - | - | - | inhibition | 30%
CS(=O)(=O)c1ccc2nc(N)sc2c1 | - | Nonstructural protein 3 NTPase/helicase | Hepatitis C virus | - | - | - | - | IC50 | >25 µg/mL
O=C(O)[C@H](Cc1ccccc1)N(Cc1ccc(-c2cccc(Cl)c2)o1)C(=O)c1ccccc1Cl | - | RNA-dependent RNA polymerase | Hepatitis C virus | - | - | - | - | IC50 | 5–20 µM
CC[C@H](C)[C@H](NC(=O)[C@@H](NC(C)=O)C(c1ccccc1)c1ccccc1)C(=O)N[C@@H](CC1CCCCC1)C(=O)N[C@@H](CS)C(=O)O | - | HCV NS3 protease | Hepatitis C virus | - | - | - | - | IC50 | 100 µM
O=C(Nc1ccc2[nH]ncc2c1)c1cc(N2CCC(O)CC2)c(F)cc1F | - | Reverse transcriptase | Hepatitis B virus | 0.1 µg/mL | - | - | - | inhibition | 52%
O=C1/C(=C\c2ccc3c(c2)OCCO3)SC(=S)N1NS(=O)(=O)c1ccccc1 | - | NS5B polymerase | Hepatitis C virus | - | - | - | - | IC50 | ≤30 µM
Cc1cc(S(=O)(=O)Nc2cc(-c3cc(C(F)(F)F)cc(C(F)(F)F)c3)sc2C(=O)O)c(C)cc1Cl | - | NS3 ATPase | Hepatitis C virus | - | - | - | - | IC50 | >20 µM
CSCC[C@H](NC(=O)[C@H](CCC(=O)O)NC(=O)[C@H](CC(=O)O)NC(C)=O)C(=O)N[C@@H](CCC(=O)O)C(=O)N[C@@H](CC1CCCCC1)C(=O)N[C@@H](CS)C(=O)O | - | Full-length NS3 | Hepatitis C virus | - | - | - | - | IC50 | 1.74 µM
O=C(Nc1ccsc1-c1nc(C(=O)O)c(O)c(=O)[nH]1)OCc1ccc2ccccc2c1 | - | HCV polymerase | Hepatitis C virus | - | - | - | - | IC50 | <25 µM
CSCC[C@H](NC(=O)[C@H](CCC(=O)O)NC(=O)[C@H](CC(=O)O)NC(C)=O)C(=O)N[C@@H](CCC(=O)O)C(=O)N[C@@H](CC1CCCCC1)C(=O)N[C@@H](CS)C(=O)O | - | HCV NS3 protease | Hepatitis C virus | - | - | - | - | IC50 | 0.35 µM
O=C(O)c1sc(-c2ccccc2)cc1NS(=O)(=O)c1cccc(C(F)(F)F)c1 | - | NS3 ATPase | Hepatitis C virus | - | - | - | - | IC50 | 5–20 µM
C[C@@]1(O)[C@H](O)[C@@H](COP(=O)(O)OP(=O)(O)OP(=O)(O)O)O[C@@]1(C#N)c1ccc2c(N)ncnn12 | S282T | Nonstructural protein 5B | Hepatitis C virus | - | 1b Con1 | - | radiometric | fold resistance | 240
COc1cc(C)c(S(=O)(=O)N(Cc2cccc(I)c2)C(Cc2ccccc2)C(=O)O)c(C)c1C | - | RNA-dependent RNA polymerase | Hepatitis C virus | - | - | - | - | IC50 | 5–20 µM
CC(C)CCn1c(=O)c(C2=NCCS(=O)(=O)N2)c(O)c2ccccc21 | - | NS5B polymerase | Hepatitis C virus | - | - | - | - | IC50 | 0.08 µM
CC1=NCCN1c1cc(C(=O)Nc2ccc3[nH]ncc3c2)c(F)cc1F | - | Reverse transcriptase | Hepatitis B virus | 0.1 µg/mL | - | - | - | inhibition | 40%
Cc1cccc2sc(N)nc12 | - | Nonstructural protein 3 NTPase/helicase | Hepatitis C virus | - | - | - | - | IC50 | >25 µg/mL
O=c1c(O)c(-c2ccc(O)cc2)oc2cc(O)ccc12 | - | Replicase complex | Hepatitis C virus | 20 µM | J4 | - | SYBR Green | inhibition | 63.9%
O=C(O)[C@@H](Cc1ccccc1)N(Cc1ccc(-c2cc3ccccc3o2)cc1)C(=O)c1ccc(Cl)cc1Cl | - | RNA-dependent RNA polymerase | Hepatitis C virus | - | - | - | - | IC50 | <5 µM
CO[C@@H]1[C@H](O)[C@@H](CO)O[C@H]1n1ccc(N)nc1=O | - | NS5B polymerase | Hepatitis C virus | - | - | - | - | IC50 | 3.8 µM
O=C(Nc1ccc2[nH]ncc2c1)c1cc(C2CCNCCN2)c(F)cc1F | - | Reverse transcriptase | Hepatitis B virus | 1 µg/mL | - | - | - | inhibition | 67%
CSc1nc(Nc2ccc(N3CCOCC3)cc2)cc(N2CCN(C(=O)OC(C)C)CC2)n1 | - | NS5B polymerase | Hepatitis C virus | 0.1 µg/mL | - | - | - | inhibition | 55%
Cc1ccc2oc(-c3ccc(N)cc3)nc2c1 | - | Nonstructural protein 3 NTPase/helicase | Hepatitis C virus | - | - | - | - | IC50 | >25 µg/mL
CC[C@H]1CC1(NC(=O)[C@@H]1C[C@@H](Oc2cc(-c3ccccc3)nc3cc(OC)ccc23)CN1C(=O)[C@@H](Nc1ccc(C(=O)OC(C)(C)C)cc1)C(C)(C)C)C(=O)O | - | HCV NS3/NS4A protease | Hepatitis C virus | - | - | - | - | IC50 | 0.13 µM
O=C1CC(=O)OC(C#Cc2nccs2)(C2CCCC2)C1 | - | NS5B polymerase | Hepatitis C virus | - | - | - | - | IC50 | 2.1 µM
O=C(Nc1cc(Cl)nc(Cl)c1)Nc1cc(-c2ccccc2)sc1C(=O)O | - | NS3 ATPase | Hepatitis C virus | - | - | - | - | IC50 | <5 µM
Cc1ccc2nc(-c3ccc(NC(=O)CCC(=O)Nc4ccc(-c5nc6ccc(C)cc6s5)cc4)cc3)sc2c1 | - | Nonstructural protein 3 NTPase/helicase | Hepatitis C virus | - | - | - | - | IC50 | >25 µg/mL
O=C(Nc1sccc1-c1nc(C(=O)O)c(O)c(=O)[nH]1)OCc1ccccc1 | - | HCV polymerase | Hepatitis C virus | - | - | - | - | IC50 | <25 µM
C=C[C@H]1CC1(NC(=O)[C@@H]1C[C@@H](Oc2cc(Cl)c3ccccc3n2)CN1C(=O)[C@@H](Nc1ccc(C(=O)OC(C)(C)C)cc1)C(C)(C)C)C(=O)O | - | HCV NS3/NS4A protease | Hepatitis C virus | - | - | - | - | IC50 | 3.2 µM
O=C(NCCc1ccccc1Cl)Nc1cscc1-c1nc(C(=O)O)c(O)c(=O)[nH]1 | - | HCV polymerase | Hepatitis C virus | - | - | - | - | IC50 | <25 µM
O=C(Nc1ccc(-c2nc3ccccc3o2)cc1)c1ccc(C(=O)Nc2ccc(-c3nc4ccccc4o3)cc2)cc1 | - | Nonstructural protein 3 NTPase/helicase | Hepatitis C virus | - | - | - | - | IC50 | >25 µg/mL